Test results from PubChem BioAssay AID588549 (Broad Institute, 2011).
This is a selection; strong and weak results do not stand in their true shares. Calls of active or inactive are those of the source. Rule as the data show it: active = inhibition above about 8.5% (passing the limit was not always enough); inconclusive = no clear call, values can overlap the other calls.

system: Mycobacterium tuberculosis FadD28 fatty-acid-AMP ligase; test: inhibitors of FadD28 bisubstrate probe binding, primary screen, biochemical, fluorescence polarization, single point (AID 588549); conditions: at 12.5 µM, active compounds read high

SMILES | inhibition
CCCCn1nnnc1C(c1ccnc2ccccc12)N1CCC(n2c(=O)[nH]c3ccccc32)CC1 (stereo not given) | inactive: -5.23%
COc1cc(OC)c(C(=O)NCC2(N(C)C)CCCCC2)cc1OC | inactive: 0.157%
O=C(NCC1(N2CCOCC2)CCCCC1)c1cc(F)c(F)cc1Cl | inactive: -2.82%
CCC(c1nnnn1C(C)(C)C)N1CCC(n2c(=O)[nH]c3ccccc32)CC1 (stereo not given) | inactive: -1.85%
COc1ccc(CN(CCCl)CCCl)cc1Cl | inactive: -3.69%
CN(C)c1cccc(C(=O)NCC2(N3CCCCC3)CCCCC2)c1 | inactive: -0.579%
CC(C)c1ccc(NC2CCN(C(=O)OC(C)(C)C)CC2)cc1 | inactive: -0.81%
CCCCn1nnnc1C(c1ccccc1OC(F)(F)F)N1CCC(n2c(=O)[nH]c3ccccc32)CC1 (stereo not given) | inactive: -2.42%
Cc1ccc(C(=O)NCC2(N(C)C)CCCCC2)o1 | inactive: 1.06%
CCCOc1ccc(C(=O)NCC2(N(C)C)CCCCC2)cc1OC | inactive: -1.45%
COc1ccc(C(c2nnnn2C2CCCC2)N2CCC(n3c(=O)[nH]c4ccccc43)CC2)cc1 (stereo not given) | inactive: -0.131%
O=C(NCC1(N2CCCCC2)CCCCC1)c1cncc(Br)c1 | inactive: -4.07%
CN1CCC(Nc2cccc(F)c2)CC1 | inactive: 2.25%
CSc1ccc(C(=O)NCC2(N3CCOCC3)CCCCC2)cc1 | inactive: 1.13%
O=C(NCC1(N2CCCCC2)CCCCC1)c1cccc([N+](=O)[O-])c1 | inactive: -0.268%
CCN1CCC(Nc2ccc(Cl)cc2)CC1 | inactive: -1.84%
N#CC1(Nc2ccccc2)CCN(CCc2ccccc2)CC1 | inactive: -2.96%
O=c1[nH]c2ccccc2n1C1CCN(C(c2ccccc2OC(F)(F)F)c2nnnn2C2CCCC2)CC1 (stereo not given) | inactive: -0.655%
CC(C)(C)n1nnnc1C(c1ccccc1OC(F)(F)F)N1CCC(n2c(=O)[nH]c3ccccc32)CC1 (stereo not given) | inactive: -2.7%
O=C(NCC1(N2CCCCC2)CCCCC1)c1ccc(OC(F)F)cc1 | inactive: -2.87%
CCCCn1nnnc1C(c1cccc2ccccc12)N1CCC(n2c(=O)[nH]c3ccccc32)CC1 (stereo not given) | inactive: -5.54%
CN1CCN(CCOC(=O)C(O)(c2ccccc2)c2ccccc2)CC1 | inactive: -2.56%
CC(C)c1ccc(C(=O)NCC2(N3CCOCC3)CCCCC2)cc1 | inactive: -2.16%
COc1ccc(NC2CCN(C(=O)OC(C)(C)C)CC2)cc1 | inactive: -3.68%
O=C(NCC1(N2CCOCC2)CCCCC1)c1cc(=O)[nH]c2ccccc12 | inactive: -1.11%
O=C(NCC1(N2CCCCC2)CCCCC1)c1cccc(C(F)(F)F)c1 | inactive: -3.24%
O=C(NCC1(N2CCCCC2)CCCCC1)c1ccc(F)cc1 | inactive: -4.25%

SMILES | inhibition
O=P1(N(CCCl)CCCl)SCCCS1 | inactive: -1.01%
CCCCn1nnnc1C(c1cc2ccccc2o1)N1CCC(n2c(=O)[nH]c3ccccc32)CC1 (stereo not given) | inactive: -3.28%
CCCCOc1ccc(C(=O)NCC2(N3CCOCC3)CCCCC2)cc1 | inactive: -1.4%
COc1ccc(NC2CCN(CCc3ccccc3)CC2)c(OC)c1 | inactive: 0.586%
CCOC(=O)N1CCC(Nc2ccc(F)cc2)CC1 | inactive: 0.313%
CCOc1ccc(C)cc1CN(CCCl)CCCl | inactive: -0.149%
CC(C)(C)n1nnnc1C(c1ccccc1)N1CCC(n2c(=O)[nH]c3ccccc32)CC1 (stereo not given) | inactive: -1.65%
O=C1CCN(Cc2ccccc2)CC1 | inactive: -0.062%
O=c1[nH]c2ccccc2n1C1CCN(C(c2cccc3ccccc23)c2nnnn2C2CCCC2)CC1 (stereo not given) | inactive: -2.04%
CCOC(=O)N1CCC(Nc2cccc(C)c2)CC1 | inactive: -2.68%
O=c1[nH]c2ccccc2n1C1CCN(C(c2ccccc2)c2nnnn2C2CCCCC2)CC1 (stereo not given) | inactive: -4.56%
CSc1ccccc1C(=O)NCC1(N2CCCCC2)CCCCC1 | inactive: -0.187%
Cc1cccc(NC2(C#N)CCN(Cc3ccccc3)CC2)c1 | inactive: -1.19%
O=C(NCC1(N2CCCCC2)CCCCC1)c1ccc(=O)[nH]c1 | inactive: 1.1%
CCCCn1nnnc1C(c1cccs1)N1CCC(n2c(=O)[nH]c3ccccc32)CC1 (stereo not given) | inactive: -1.54%
O=C(NCC1(N2CCCCC2)CCCCC1)c1cccs1 | inactive: -0.598%
CCCCn1nnnc1C(CC)N1CCC(n2c(=O)[nH]c3ccccc32)CC1 (stereo not given) | inactive: -0.237%
COc1ccc(C(=O)NCC2(N3CCCCC3)CCCCC2)cc1 | inactive: -1.55%
CCC(c1nnnn1C1CCCC1)N1CCC(n2c(=O)[nH]c3ccccc32)CC1 (stereo not given) | inactive: -3.88%
CC(C)(C)OC(=O)N1CCC(N(C(=O)c2ccccc2)c2ccc(F)cc2)CC1 | inactive: -1.02%
COc1ccc(C(=O)NCC2(N3CCCCC3)CCCCC2)c(OC)c1OC | inactive: -2.49%
CCOC(=O)N1CCC(Nc2ccc(OC)cc2)CC1 | inactive: -2.82%
CCCCn1nnnc1C(c1ccc(OC)cc1)N1CCC(n2c(=O)[nH]c3ccccc32)CC1 (stereo not given) | inactive: 0.739%
O=C(OC1CN2CCC1CC2)C1c2ccccc2Oc2ccccc21 (stereo not given) | inactive: -5%
O=c1[nH]c2ccccc2n1C1CCN(C(c2cc3ccccc3o2)c2nnnn2C2CCCCC2)CC1 (stereo not given) | inactive: -0.962%
N#CC1(Nc2ccccc2)CCN(Cc2ccccc2)CC1 | inactive: -2.64%
O=C(NCC1(N2CCCCC2)CCCCC1)c1ccc(Cl)s1 | inactive: -2.64%

SMILES | inhibition
COc1ccc(Cl)cc1C(=O)NCC1(N2CCOCC2)CCCCC1 | inactive: -0.247%
O=C(NCC1(N2CCOCC2)CCCCC1)c1cc2ccccc2o1 | inactive: -1.19%
O=c1[nH]c2ccccc2n1C1CCN(C(c2ccccc2OC(F)(F)F)c2nnnn2C2CCCCC2)CC1 (stereo not given) | inactive: -3.11%
O=C(NCC1(N2CCCCC2)CCCCC1)c1ccc(Cl)nc1 | inactive: 0.141%
Cc1cc(C)cc(N(C(=O)c2ccccc2)C2CCN(C(=O)OC(C)(C)C)CC2)c1 | inactive: -1.98%
CCCOc1ccc(C(=O)NCC2(N(C)C)CCCCC2)cc1 | inactive: -4.34%
O=c1[nH]c2ccccc2n1C1CCN(C(c2cc3ccccc3o2)c2nnnn2C2CCCC2)CC1 (stereo not given) | inactive: -2.33%
CC(C)(C)OC(=O)N1CCC(Nc2ccccc2)CC1 | inactive: -1.1%
O=C(O)C1(Nc2ccccc2)CCN(Cc2ccccc2)CC1 | inactive: -0.768%
CCOc1ncccc1C(=O)NCC1(N2CCOCC2)CCCCC1 | inactive: -1.63%
CN1CCC(Nc2ccc(F)c(Cl)c2)CC1 | inactive: -0.819%
CN1CCC(Nc2ccc(Cl)cc2)CC1 | inactive: 1.15%
CCC(CO)(C(=O)OC1CN2CCC1CC2)c1ccccc1 (stereo not given) | inactive: -1.43%
COc1cccc(C(c2nnnn2C2CCCC2)N2CCC(n3c(=O)[nH]c4ccccc43)CC2)c1OC (stereo not given) | inactive: -3.28%
COc1cc(OC)cc(C(=O)NCC2(N3CCOCC3)CCCCC2)c1 | inactive: -3.86%
COc1cccc(C(=O)N(c2cc(C)cc(C)c2)C2CCN(C(=O)OC(C)(C)C)CC2)c1 | inactive: -1.55%
Cc1ccc(NC2(C#N)CCN(Cc3ccccc3)CC2)cc1 | inactive: -1.09%
Cc1ccc(C(=O)NCC2(N3CCCCC3)CCCCC2)o1 | inactive: -3.8%
Fc1ccccc1NC1CCN(Cc2ccccc2)CC1 | inactive: 0.461%
O=c1[nH]c2ccccc2n1C1CCN(C(c2ccnc3ccccc23)c2nnnn2C2CCCCC2)CC1 (stereo not given) | inactive: -1.92%
COc1cc(OC)cc(C(=O)NCC2(N3CCCCC3)CCCCC2)c1 | inactive: 0.354%
CC(=O)N(c1ccccc1)C1CCNCC1 | inactive: -1.23%
COc1cccc(C(c2nnnn2C2CCCCC2)N2CCC(n3c(=O)[nH]c4ccccc43)CC2)c1OC (stereo not given) | inactive: -5.3%
CCC(c1nnnn1C1CCCCC1)N1CCC(n2c(=O)[nH]c3ccccc32)CC1 (stereo not given) | inactive: -2.41%
O=C(NCC1(N2CCCCC2)CCCCC1)c1ccco1 | inactive: -1.76%
Cn1c(=O)[nH]cc(N(CCCl)CCCl)c1=O | inactive: -1.97%
CN(C)c1ccc(C(=O)NCC2(N3CCCCC3)CCCCC2)cc1 | inactive: 0.134%

SMILES | inhibition
Cc1ccccc1NC1(C#N)CCN(Cc2ccccc2)CC1 | inactive: -1.36%
CC(C)(C)n1nnnc1C(c1ccnc2ccccc12)N1CCC(n2c(=O)[nH]c3ccccc32)CC1 (stereo not given) | inactive: -1.19%
CCN1CCC(Nc2cccc(F)c2)CC1 | inactive: 1.27%
COc1ccc(C(c2nnnn2C2CCCCC2)N2CCC(n3c(=O)[nH]c4ccccc43)CC2)cc1 (stereo not given) | inactive: -6.16%
CC(C)(C)OC(=O)N1CCC(N(C(=O)c2ccccc2)c2ccc(Cl)cc2)CC1 | inactive: -0.516%
N#Cc1ccc(C(=O)NCC2(N3CCCCC3)CCCCC2)cc1 | inactive: -2.37%
CC(C)(C)n1nnnc1C(c1cccc2ccccc12)N1CCC(n2c(=O)[nH]c3ccccc32)CC1 (stereo not given) | inactive: -5.02%
c1ccc(CN2CCC(Nc3ccccc3)CC2)cc1 | inactive: -0.188%
Cc1cc(N(CCCl)CCCl)ccc1C=O | inactive: -3.45%
O=c1[nH]c2ccccc2n1C1CCN(C(c2ccccc2)c2nnnn2C2CCCC2)CC1 (stereo not given) | inactive: -0.517%
CCCN1CCC(Nc2cc(OC)cc(OC)c2)CC1 | inactive: -3.83%
CN(C)C1(CNC(=O)c2cccc(C#N)c2)CCCCC1 | inactive: -1.9%
COc1ccc(C(=O)NCC2(N3CCOCC3)CCCCC2)cc1OC | inactive: -2.38%
O=c1[nH]c2ccccc2n1C1CCN(C(c2ccnc3ccccc23)c2nnnn2C2CCCC2)CC1 (stereo not given) | inactive: -6.39%
O=c1[nH]c2ccccc2n1C1CCN(C(c2cccs2)c2nnnn2C2CCCCC2)CC1 (stereo not given) | inactive: -2.07%
O=C(NCC1(N2CCOCC2)CCCCC1)c1cc(Br)ccc1Cl | inactive: -0.46%
CCCCn1nnnc1C(c1ccccc1)N1CCC(n2c(=O)[nH]c3ccccc32)CC1 (stereo not given) | inactive: -3.7%
COc1cc(C(=O)NCC2(N3CCOCC3)CCCCC2)cc(OC)c1C | inactive: -2.75%
CCCCn1nnnc1C(c1cccc(OC)c1OC)N1CCC(n2c(=O)[nH]c3ccccc32)CC1 (stereo not given) | inactive: -1.47%
O=C(OC1CN2CCC1CC2)C1c2ccccc2C=Cc2ccccc21 (stereo not given) | inactive: -1.08%
O=c1[nH]c2ccccc2n1C1CCN(C(c2cccs2)c2nnnn2C2CCCC2)CC1 (stereo not given) | inactive: -5.23%
N/C(=N\O)c1c(N)no[n+]1[O-] | inactive: -1.81%
COc1cccc(C(c2nnnn2C(C)(C)C)N2CCC(n3c(=O)[nH]c4ccccc43)CC2)c1OC (stereo not given) | inactive: -2.8%
CCOC(=O)N1CCC(Nc2ccc(C)cc2)CC1 | inactive: 0.17%
